Reference: PMC9093745, “Carbohydrate Metabolism in Bacteria: Alternative Specificities in ADP-Glucose Pyrophosphorylases Open Novel Metabolic Scenarios and Biotechnological Tools” (Frontiers in Microbiology, 2022)

Columns and labels:
[1] = system: O=P(O)(O)O[C@H]1O[C@H](CO)[C@@H](O)[C@H](O)[C@H]1O; test: purified protein; conditions: ATP co-substrate, Mg2+, pH 8.0, 37°C, no effector
[2] = system: N[C@H]1[C@@H](OP(=O)(O)O)O[C@H](CO)[C@@H](O)[C@@H]1O; test: purified protein; conditions: ATP co-substrate, Mg2+, pH 8.0, 37°C, no effector

## A. tumefaciens ADP-Glc PPase (Agrobacterium tumefaciens; E187A)
[1]
  Km: 427 ± 49 µM
  Vmax: 0.27 µmol/min/mg
  Vmax/Km: 632 µL/min/mg
[2]
  Km: 1500 ± 230 µM
  Vmax: 0.012 µmol/min/mg
  Vmax/Km: 8 µL/min/mg
